Results reported in US20100016367A1, “BIS-PYRINIDIUM COMPOUNDS” (priority 2006, published 2010).

Columns and labels:
Settings in all cases: Table 1b
A. flavus ATCC 204304 = experiment: Antifungal MIC, broad spectrum; assay type: cell-based, Aspergillus flavus
A. flavus 05-203758 = experiment: Antifungal MIC, broad spectrum; assay type: cell-based, Aspergillus flavus
C. albicans ATCC 10231 = experiment: Antifungal susceptibility assay, MIC; assay type: cell-based, Candida albicans
C. albicans ATCC 90028 = experiment: Antifungal MIC, broad spectrum; assay type: cell-based, Candida albicans
C. gattii 05-200122 = experiment: Antifungal MIC, broad spectrum; assay type: cell-based, Cryptococcus gattii
C. neoformans 05-202523 = experiment: Antifungal MIC, broad spectrum; assay type: cell-based, Cryptococcus neoformans
[1] = test system: Rhizopus oryzae 05-203111; experiment: Antifungal MIC, broad spectrum; assay type: cell-based
[2] = test system: Absidia corymbifera 04-200170; experiment: Antifungal MIC, broad spectrum; assay type: cell-based
[3] = test system: Exophiala spinifera 03-200803; experiment: Antifungal MIC, broad spectrum; assay type: cell-based
[4] = test system: Paecilomyces lilacinus 05-200601; experiment: Antifungal MIC, broad spectrum; assay type: cell-based
[5] = test system: Exophiala jeanselmei 03-200268; experiment: Antifungal MIC, broad spectrum; assay type: cell-based
[6] = test system: Fusarium solani 04-203102; experiment: Antifungal MIC, broad spectrum; assay type: cell-based
C. glabrata 04-202345 = experiment: Antifungal MIC, broad spectrum; assay type: cell-based, Candida glabrata
C. neoformans ATCC 90112 = experiment: Antifungal susceptibility assay, MIC; assay type: cell-based, Cryptococcus neoformans
A. terreus 05-202844 = experiment: Antifungal MIC, broad spectrum; assay type: cell-based, Aspergillus terreus
C. krusei ATCC 6258 = experiment: Antifungal MIC, broad spectrum; assay type: cell-based, Candida krusei
C. krusei 04-202328 = experiment: Antifungal MIC, broad spectrum; assay type: cell-based, Candida krusei
C. krusei ATCC 9258 = experiment: Antifungal MIC, broad spectrum; assay type: cell-based, Candida krusei
[7] = test system: Cunninghamella berth 99-12187; experiment: Antifungal MIC, broad spectrum; assay type: cell-based, Cunninghamella bertholletiae
C. tropicalis 04-202361 = experiment: Antifungal MIC, broad spectrum; assay type: cell-based, Candida tropicalis
S. apiospermum 05-203100 = experiment: Antifungal MIC, broad spectrum; assay type: cell-based, Scedosporium apiospermum
[8] = test system: C. parapsilosis 04-202398; experiment: Antifungal MIC, broad spectrum; assay type: cell-based, Candida parapsilosis
[9] = test system: C. parapsilosis ATCC 22019; experiment: Antifungal MIC, broad spectrum; assay type: cell-based, Candida parapsilosis
S. prolificans 05-203060 = experiment: Antifungal MIC, broad spectrum; assay type: cell-based, Scedosporium prolificans
A. fumigatus 05-203114 = experiment: Antifungal MIC, broad spectrum; assay type: cell-based, Aspergillus fumigatus
A. fumigatus ATCC 204305 = experiment: Antifungal MIC, broad spectrum; assay type: cell-based, Aspergillus fumigatus

| Structure (SMILES) | MIC A. flavus ATCC 204304 (A. flavus ATCC 204304) [µM] | MIC A. flavus 05-203758 (A. flavus 05-203758) [µM] | MIC C. albicans ATCC 10231 (C. albicans ATCC 10231) [µM] | MIC C. albicans ATCC 90028 (C. albicans ATCC 90028) [µM] | MIC C. gattii 05-200122 (C. gattii 05-200122) [µM] | MIC C. neoformans 05-202523 (C. neoformans 05-202523) [µM] | MIC Rhizopus oryzae 05-203111 [1] [µM] | MIC Absidia corymbifera 04-200170 [2] [µM] | MIC Exophiala spinifera 03-200803 [3] [µM] | MIC Paecilomyces lilacinus 05-200601 [4] [µM] | MIC Exophiala jeanselmei 03-200268 [5] [µM] | MIC Fusarium solani 04-203102 [6] [µM] | MIC C. glabrata 04-202345 (C. glabrata 04-202345) [µM] | MIC C. neoformans ATCC 90112 (C. neoformans ATCC 90112) [µM] | MIC A. terreus 05-202844 (A. terreus 05-202844) [µM] | MIC C. krusei ATCC 6258 (C. krusei ATCC 6258) [µM] | MIC C. krusei 04-202328 (C. krusei 04-202328) [µM] | MIC Cunninghamella berth 99-12187 [7] [µM] | MIC C. tropicalis 04-202361 (C. tropicalis 04-202361) [µM] | MIC S. apiospermum 05-203100 (S. apiospermum 05-203100) [µM] | also measured |
| --- | --- | --- | --- | --- | --- | --- | --- | --- | --- | --- | --- | --- | --- | --- | --- | --- | --- | --- | --- | --- | --- |
| CCCCCc1cc[n+](CCCCCCCCCCCC[n+]2ccc(CCCCC)c(CCCCC)c2)cc1CCCCC | 11 | 22 | 2.75 | 2.75 | 2.75 | 11 | 2.75 | 22 | 2.75 | 22 | 2.75 | 22 | 1.4 | 2.75 | 1.4 | 2.75 | 2.75 | 11 | 2.75 | 5.5 | MIC C. krusei ATCC 9258 (C. krusei ATCC 9258): 2.75 µM; MIC C. parapsilosis 04-202398 [8]: 11 µM; MIC C. parapsilosis ATCC 22019 [9]: 2.75 µM; MIC S. prolificans 05-203060 (S. prolificans 05-203060): 2.75 µM; MIC A. fumigatus 05-203114 (A. fumigatus 05-203114): 11 µM; MIC A. fumigatus ATCC 204305 (A. fumigatus ATCC 204305): 11 µM |
| CC(C)(C)CCc1cc[n+](CCCCCCCCCCCC[n+]2ccc(CCC(C)(C)C)cc2)cc1 | >87.5 | >87.5 | 5.5 | 5.5 | 2.75 | 44 | 11 | >87.5 | 1.4 | >87.5 | 2.75 | >87.5 | 1.4 | 2.75 | 87.5 | 44 | 44 | >87.5 | 2.75 | 11 | MIC C. parapsilosis 04-202398 [8]: 87.5 µM; MIC C. parapsilosis ATCC 22019 [9]: 2.75 µM; MIC S. prolificans 05-203060 (S. prolificans 05-203060): 2.75 µM; MIC A. fumigatus 05-203114 (A. fumigatus 05-203114): >87.5 µM; MIC A. fumigatus ATCC 204305 (A. fumigatus ATCC 204305): >87.5 µM |
